From article PMC6744242

Target: N9 NA (rgSH2; NA of A/Shanghai/2/2013) (Influenza A virus (A/Shanghai/02/2013(H7N9)), UniProt R4NFR6)
Settings: preliminary experiment, 25 C; zanamivir used at 10 uM in later runs

## CC(=O)N[C@H]1[C@H]([C@H](O)[C@H](O)CO)OC(C(=O)O)=C[C@@H]1N=C(N)N
  sensitive to inhibitor, no constant: NL12 (N3), SH2 (N9), and rgGD17 (N9), were sensitive to NAi zanamivir hydrate

This is a selection: effects in other tests are not listed, and their absence says nothing.
